Anti-infective test results gathered from many reports (values: NIAID ChemDB through PubChem).

Shared fields: cytotoxicity tests; cells: KB; endpoint: CC50

Rows are shuffled and stem from different studies. Blank or dashed fields: not listed here. CCn: concentration that lowers growth or viability of the cells by n%.

structure,method,value
OCC(CO)OCn1c(Br)nc2cc(Cl)c(Cl)cc21,-,>100 µM
CC(C)Nc1nc2cc(Cl)c(Cl)cc2n1[C@@H]1O[C@@H](CO)[C@@H](O)[C@H]1O,-,>100 µM
C=C1[C@H](n2cc(/C=C/Br)c(=O)[nH]c2=O)S[C@H](CO)[C@H]1O,MTT,>100 µg/mL
COC1=Cc2c(cc(OC3=C4C(=CC(=O)C4(C)C)c4cc(OC)c(C)cc4C3=O)c3cc(C)c(OC)cc23)C(C)(C)C1=O,absorbance,>10 µM
Nc1nc2c(Cl)cc(Cl)cc2n1COCCO,-,>100 µM
C[C@@H]1CC[C@H]2C3=C(C[C@H](O)[C@@]2(O)C1)C(=O)c1c(O)cccc1C3=O,resazurin,9.1 µM
OC[C@H]1O[C@@H](n2c(Cl)nc3cc(Cl)c(Cl)cc32)[C@H](O)[C@@H]1O,-,210 µM
CCOC1N=C2C3=C(N=CN2N1c1ccccc1)SC(c1ccncc1)C1=C3/C(=C/c2ccncc2)CCC1,MTT,12.5 µM
COc1c(C)c(C)c2[nH]c3ccccc3c2c1OC,resazurin,30.1 µg/mL
C[C@H]1O[C@H](n2c(Br)nc3cc(Cl)c(Cl)cc32)[C@@H](O)[C@H]1O,-,>100 µM
S=c1[nH]c2c(c(=S)[nH]1)C1=C(CCC/C1=C\c1ccncc1)C(c1ccncc1)S2,MTT,13.7 µM
Clc1cc2nc(Cl)c(CSCc3ccccc3)n2cc1Cl,-,>100 µM
CC1(C)CCC[C@]2(C)[C@H]3C[C@@H](C4=CCOC4=O)CC3=CC[C@@H]12,absorbance,20.2 µM
C[C@H]([C@@H]1CC[C@@H](C)C(=O)O1)[C@H]1CC[C@@]2(C)C3=C(CC[C@]12C)[C@@]1(C)CC[C@@H](O)C(C)(C)C1CC3,resazurin,>50 µg/mL
OCCOCn1cnc2c(Cl)cc(Cl)cc21,-,>100 µM
OCC(O)COCc1c(Cl)nc2cc(Cl)c(Cl)cn12,-,>100 µM
C=C1[C@H](O)[C@@H](CO)S[C@@H]1n1cc(CCO)c(=O)[nH]c1=O,MTT,>100 µg/mL
C/C(=C\C[C@H](O)[C@@H](C)[C@H]1CC[C@@]2(C)C3=C(CC[C@]12C)[C@@]1(C)CCC(=O)C(C)(C)C1CC3)C(=O)O,resazurin,19.99 µg/mL
Cc1ncc(-c2c[nH]c3ccccc23)o1,resazurin,>50 µg/mL
CC(=O)O[C@@H](C/C=C(\C)C(=O)O)[C@@H](C)[C@H]1CC[C@@]2(C)C3=C(CC[C@]12C)[C@@]1(C)CCC(=O)C(C)(C)C1CC3,resazurin,34.69 µg/mL
O=c1sc2nc3c(c(=S)n2/c1=C/c1ccccc1)C1=C(CCC/C1=C\c1ccncc1)C(c1ccncc1)S3,MTT,38.5 µM
Nc1nc(N)c2cc3c(ccc4ccccc43)nc2n1,MTT,6.7 µM
C=C1[C@H](n2cc(C)c(=O)[nH]c2=O)S[C@H](CO)[C@H]1O,MTT,>100 µg/mL
CCOC(=O)CNC1=C(C#N)C2=C(CCC/C2=C\c2ccncc2)C(c2ccncc2)S1,MTT,48.5 µM
COc1c(C)c(C)c2[nH]c3ccc(Cc4c(C)c(OC)c(O)c5c4[nH]c4ccccc45)cc3c2c1O,resazurin,36.8 µg/mL
C=C1[C@H](O)[C@@H](CO)S[C@@H]1n1cc(I)c(=O)[nH]c1=O,MTT,>100 µg/mL
CC(C)=CCC/C(C)=C/CC/C(=C\CC/C(C)=C/C(=O)O)C(=O)O,resazurin,>20 µg/mL
CN(C)c1nc2c(Cl)cc(Cl)cc2n1COC(CO)CO,-,>100 µM
O=C1Sc2nc3c(c(=S)n2C/C1=C/c1ccc(Cl)cc1)C1=C(CCC/C1=C\c1ccncc1)C(c1ccncc1)S3,MTT,16.5 µM
OCCCOCc1c(Cl)nc2ccc(Cl)cn12,-,>100 µM
O=c1[nH]c(=S)[nH]c2c3c([nH]c12)SC(c1ccncc1)C1=C3/C(=C/c2ccncc2)CCC1,MTT,12.8 µM
OCCSCc1c(Cl)nc2ccc(Cl)cn12,-,>100 µM
Cc1cc(=O)[nH]c2c1ccc1ncc(C(=O)O)c(C)c12,-,12 µg/mL